A mixed list of measured activities; the numbers were collected in NIAID ChemDB.

Shared fields: whole-cell or culture tests

An empty or dashed field is not shown. ECn is the concentration giving n% inhibition of infection, replication or growth. Inhibition is in % at the dose shown (toxicity tests: loss of growth or viability). a–b is a range or a potency band. A number after MIC or MFC names an inhibition level or a share of isolates. Zone: diameter of growth inhibition. Rows are shuffled and stem from different studies.

structure | tested at | endpoint | conditions | cells | agent | method | strain | value
Nc1nc(NC2CC2)c2ncn(C=C3CC3CO)c2n1 |  | EC50 |  | Rat embryo fibroblasts | Rat cytomegalovirus | plaque count |  | 10.7 µM
OC[C@@H]1C[C@@H](O)[C@H](n2cnc3c(NC4CCCCCC4)cc(Cl)nc32)O1 |  | EC50 |  |  | Maedi-visna virus | cytopathic effect |  | 0.15 µM
OC[C@H]1O[C@@H](n2c(Br)nc3cc(Cl)c(Cl)cc32)[C@H](O)[C@@H]1O |  | EC50 |  | HFF | Rat cytomegalovirus | plaque count |  | 26 µM
COc1ccc(OCc2ccccc2C(=O)NC(=S)Nc2ccc([N+](=O)[O-])cc2)cc1 |  | EC50 |  | Human foreskin fibroblasts (HFF) | Toxoplasma gondii |  | RH beta-gal | 55 µM
COC(=O)[C@H]1[C@@H]2C[C@@H](O[C@@H]3O[C@H](C)[C@@H](O)[C@H](N)[C@@H]3O)/C=C/C=C/C=C/C=C/C=C/C=C/C=C/[C@H](C)[C@@H](O)[C@H](C)[C@H](C)OC(=O)C[C@H](O)C[C@H](O)[C@@H](O)CC[C@H](O)C[C@H](O)C[C@](O)(C[C@@H]1O)O2 |  | EC50 |  | HFF | Vesicular stomatitis virus | plaque count |  | 1.3 µg/mL
Nc1nc2c(ncn2COC(CO)CO)c(=O)[nH]1 | 1 µM | inhibition |  | HEL | Cytomegalovirus |  |  | 81%
C[C@@H](c1ncncc1F)[C@](O)(Cn1cncn1)c1ccc(F)cc1F |  | MIC50 |  |  | Cryptococcus gattii | broth dilution | VG IIa | 125 µg/mL
Cc1c(NC(=O)OC(C)(C)C)ccc2nc(N(C)CCC(=O)NCCc3ccncc3)oc(=O)c12 |  | EC90 |  | VERO | Herpes simplex virus 1 | plaque count |  | >12.5 µM
Nc1ncnc2c1ncn2[C@@H]1C=C[C@@H](O)[C@H]1O |  | EC50 |  | CV-1 | Measles virus | virus yield |  | <0.1 µg/mL
COc1c(CN(C)C)cccc1C1OC(c2ccncc2)=NN1C(C)=Nc1ccccc1Cl |  | MIC |  |  | Pseudomonas aeruginosa |  | MTCC 2453 | 3.12 µg/mL
Nc1ncnc2c1ncn2[C@@H]1C[C@H](N)[C@@H](O)[C@H]1O |  | EC50 |  | CV-1 | Measles virus | neutral red | CC | 10 µg/mL
CCN=C(N)c1ccc(N2CCN(c3ccccc3)CC2)cc1 | 0.1 µg/mL | inhibition |  |  | Pneumocystis carinii |  |  | 61%
CCN(C(=O)N(C)CCc1ccccn1)c1nc2ccc(NC(=O)CCCNC(=O)c3cnccc3N(C)C)c(C)c2c(=O)o1 |  | EC90 |  | VERO | Herpes simplex virus 1 | plaque count |  | >12.5 µM
CC[C@H]1OC(=O)[C@H](C)C(=O)[C@H](C)[C@@H](O[C@@H]2O[C@H](C)C[C@H](N(C)C)[C@H]2O)[C@@]2(C)C[C@@H](C)C(=NC(C)=O)[C@H](C)[C@@H](OC/C(=N\OCc3ccc(-n4cccn4)nc3)CO2)[C@]1(C)O |  | MIC50 |  |  | Haemophilus influenzae |  | 25 strains | 4 µg/mL
COc1ccc(OCc2ccccc2C(=O)NC(=S)Nc2ccc(C)cc2)cc1 |  | EC50 |  | Human foreskin fibroblasts (HFF) | Toxoplasma gondii |  | RH beta-gal | 44 µM
CCC(CC)[C@H](NC(C)=O)[C@@H]1[C@H](O)[C@@H](C(=O)O)C[C@H]1N=C(N)N |  | EC50 |  | MDCK | Influenza B virus |  | Panama/45/90 | 2.3 µM
Cc1ccc(C(C)C)c(O)c1 |  | MLC |  |  | Aspergillus fumigatus |  | F05 | 0.64 µg/mL
CCCCCCCN=C(N)c1ccc(N2CCN(c3ccccc3)CC2)cc1 | 50 µg/mL | inhibition |  |  | Pneumocystis carinii |  |  | 92%
Cc1[nH]n(C(=O)c2sc3ccc(Cl)cc3c2Cl)c(=O)c1N=Nc1cccc([N+](=O)[O-])c1 | 40 µg/mL | zone |  |  | Pseudomonas aeruginosa | agar diffusion / agar | ATCC 27853 | 13 mm
Nc1ccn(C[C@H]2COP(=O)(O)CO2)c(=O)n1 |  | EC50 |  | MRC-5 | Guinea pig cytomegalovirus | plaque count |  | 0.5 µM
CC(C)(O)c1cn(-c2cccc3ccccc23)nn1 | 2048 µg/mL | inhibition |  |  | Candida parapsilosis | broth dilution | URM 4608 | 0%
Nc1nc2c(ncn2COC(CO)CO)c(=O)[nH]1 |  | EC90 |  | H-1 | Epstein-Barr virus |  |  | 5 µM
C=CCc1ccc(O)c(OC)c1 |  | MIC90 |  |  | Candida parapsilosis | turbidity | 2615 | 490 µg/mL
NC(=NCCc1ccccc1)c1ccc(N2CCN(c3ccccc3)CC2)cc1 | 50 µg/mL | inhibition |  |  | Pneumocystis carinii |  |  | 95%
O=c1[nH]c(=O)n([C@H]2C[C@H](O)[C@@H](CO)O2)cc1Br |  | EC50 |  | ME | Murine polyoma virus | hybridisation |  | 0.05–0.25 µg/mL
CCCCCCCCOC(=O)[C@]1(O)C[C@@H](O)[C@@H](O)[C@H](OC(=O)/C=C/c2ccc(O)c(O)c2)C1 |  | MIC80 |  |  | Aspergillus westerdijkiae | absorbance | CBS 112803 | 2100 µM
O=C(NC(=S)Nc1cccc([N+](=O)[O-])c1)c1ccccc1COc1ccc(Cl)cc1 |  | EC50 |  | Human foreskin fibroblasts (HFF) | Toxoplasma gondii |  | RH beta-gal | 118 µM
Cc1ccc(Cn2cnc3c(Nc4cccc(F)c4)nc(C(F)(F)F)nc32)cc1 |  | EC50 |  | M-HELA | Rhinovirus | plaque count | Serotype 1B | 1.7 µM
Cc1[nH]n(C(=O)c2sc3ccc(Cl)cc3c2Cl)c(=O)c1N=Nc1ccc(Cl)cc1Cl | 40 µg/mL | zone |  |  | Pseudomonas aeruginosa | agar diffusion / agar | ATCC 27853 | 18 mm
Nc1nc2c(ncn2COCCO)c(=O)[nH]1 |  | EC90 |  | H-1 | Epstein-Barr virus |  |  | 50 µM
CC(C)C1=C2[C@H]3CC[C@@H]4[C@@]5(C)CC[C@H](OC(=O)CC(C)(C)C(=O)O)C(C)(C)[C@@H]5CC[C@@]4(C)[C@]3(C)CC[C@@]2([C@@H](O)CN(CCN(C)C)Cc2ccc(Cl)cc2)CC1=O |  | EC50 |  | CEM-SS + MAGIC-5A | SIV | syncytia / visual reading / single cycle | MAC239 | >0.1 µM
Fc1cccc(Cn2cnc3c(Nc4cccc(F)c4)nc(C(F)(F)F)nc32)c1 |  | EC50 |  | M-HELA | Rhinovirus | plaque count | Serotype 14 | 7 µM
Cn1nc(Cc2ccc(Cl)cc2)c2ccccc2c1=O |  | MIC80 |  |  | Cryptococcus neoformans | broth dilution | Clinical isolate (IM 983036) | ≥250 µg/mL
Nc1ccn(C[C@@H](CO)OCP(=O)(O)O)c(=O)n1 |  | EC50 |  | HFF | Guinea pig cytomegalovirus | plaque count |  | 1.6 µM
CCCCCCCCCCCCCCCCCCOCCOP(=O)(O)CO[C@H](CO)Cn1ccc(N)nc1=O |  | EC50 |  | MRC-5 | Rat cytomegalovirus | plaque count |  | 0.005 µM
CO[C@H]1/C=C/O[C@@]2(C)Oc3c(C)c(O)c4c(O)c(c(/C=N/N5CCN(C6CCCC6)CC5)c(O)c4c3C2=O)NC(=O)/C(C)=C\C=C\[C@H](C)[C@H](O)[C@@H](C)[C@@H](O)[C@@H](C)[C@H](OC(C)=O)[C@@H]1C |  | MIC |  |  | Mycobacterium avium intracellulare |  | 9-Feb | 2 µg/mL
C/C=C/C/C=C/CCC(=O)[C@H]1O[C@H]1C(N)=O |  | MIC |  |  | Escherichia coli |  | UB1005/PBR322 | 20 µg/mL
Cc1[nH]n(C(=O)c2sc3ccc(Cl)cc3c2Cl)c(=O)c1N=Nc1c(Br)cc(Br)cc1Br | 40 µg/mL | zone |  |  | Pseudomonas aeruginosa | agar diffusion / agar | ATCC 27853 | 10 mm
CCCN=C(N)c1ccc(N2CCN(c3ccccc3)CC2)cc1 | 10 µg/mL | inhibition |  |  | Pneumocystis carinii |  |  | 72%
CC(=O)N[C@H]1C[C@@H](n2cnc3c(N)ncnc32)[C@H](O)[C@@H]1O |  | EC50 |  | HFF | Pichinde virus |  |  | >100 µg/mL
Cc1cccc(N=Nc2c(C)[nH]n(C(=O)c3sc4ccc(Cl)cc4c3Cl)c2=O)c1C | 40 µg/mL | zone |  |  | Pseudomonas aeruginosa | agar diffusion / agar | ATCC 27853 | 16 mm
CC(C)C[C@@H]1NC(=O)CNC(=O)[C@@H]2CCCN2C(=O)[C@H](CC(N)=O)NC(=O)[C@H](C)NC(=O)[C@H](Cc2ccc(O)cc2)NC(=O)[C@H]2CCCC2C1=O | 6 µg/mL | zone |  |  | Pseudomonas aeruginosa |  |  | 28 mm
Nc1nc2c(ncn2COC(CO)CO)c(=O)[nH]1 |  | EC50 |  | SML | Squirrel monkey cytomegalovirus | plaque count |  | 1.3 µM
CC(N)C12CC3CC(CC(C3)C1)C2 |  | EC50 |  | MDCK | Influenza A virus | ELISA | Influenza A H3N2 isolate 7 | 7 µg/mL
CCc1c(O)c(=O)ccn1CCOC | 72 µM | inhibition | 7 d | Human fibroblasts | Pneumocystis carinii |  |  | 81%
C[C@@H]1[C@H](O)[C@@H](C)/C=C/C=C/C=C/C=C/C=C/C=C/C=C/[C@H](O[C@@H]2O[C@H](C)[C@@H](O)[C@H](N)[C@@H]2O)C[C@@H]2O[C@](O)(C[C@@H](O)C[C@@H](O)[C@H](O)CC[C@@H](O)C[C@@H](O)CC(=O)O[C@H]1C)C[C@H](O)[C@H]2C(=O)O |  | MIC |  |  | Cryptococcus neoformans | broth dilution | Clinical isolate (IM 983040) | 0.13 µg/mL
Cc1c(NC(=O)OC(C)(C)C)ccc2nc(N(CCC(C)C)C(=O)N(C)CCc3cccnc3)oc(=O)c12 |  | EC90 |  | VERO | Herpes simplex virus 1 | plaque count |  | 6.1 µM
O=C1CCC(N2C(=O)c3ccccc3C2=O)C(=O)N1 | 10 µg/mL | inhibition |  | MRC-5 | Encephalitozoon cuniculi |  |  | 5.6%
Nc1ncnc2c1ncn2[C@@H]1C[C@H](O)[C@@H](O)[C@H]1O |  | EC50 |  | CV-1 | Measles virus | virus yield |  | 0.5 µg/mL
CCC(C)CN=C(N)c1ccc(N2CCN(c3ccccc3)CC2)cc1 | 0.1 µg/mL | inhibition |  |  | Pneumocystis carinii |  |  | 0%
Brc1ccc(Cn2ccc3nc(-c4ccccc4)nc-3c2)cc1 |  | EC50 |  | MDBK | Bovine viral diarrhea virus | MTS | NADL (TYPE 1) | 0.04 µM
Nc1ncnc2c1ncn2C=C1CC1CO |  | EC90 |  |  | Human cytomegalovirus | plaque count | VR6200 (ganciclovir-susceptible) | 4.3 µM
COc1ccc(OCc2ccccc2C(=O)NC(=S)Nc2ccc(Br)cc2)cc1 |  | EC50 |  | Human foreskin fibroblasts (HFF) | Toxoplasma gondii |  | RH beta-gal | 39 µM
Nc1nc2c(ncn2CCC(CO)CO)c(=O)[nH]1 |  | EC50 |  | EBTR | Bovine herpesvirus 1 | plaque count | Oxford 1964 | 100 µg/mL
CCc1nc(N)nc(N)c1-c1ccc(Cl)cc1 |  | EC90 |  |  | Toxoplasma gondii |  | RH | 0.47 µg/mL
COc1ccc(C2OC(c3sc4ccc(Cl)cc4c3Cl)=NN2C(C)=O)cc1 | 40 µg/mL | zone |  |  | Pseudomonas aeruginosa | agar diffusion / agar | ATCC 27853 | 22 mm
NC(=NCCc1ccc(F)cc1)c1ccc(N2CCN(c3ccccc3)CC2)cc1 | 10 µg/mL | inhibition |  |  | Pneumocystis carinii |  |  | 69%
CC[C@@H](C(C)C)[C@H](O)[C@@H](O)[C@@H](C)[C@H]1CC[C@H]2[C@@H]3CC(=O)[C@H]4C[C@H](O)[C@H](O)C[C@]4(C)[C@H]3CC[C@]12C |  | EC50 |  | VERO | Pichinde virus | plaque count | AN3739 | 3.5 µM
Fc1cccc(Nc2nc(C(F)(F)F)nc3c2ncn3Cc2ccc(C(F)(F)F)cc2)c1 |  | EC50 |  | M-HELA | Rhinovirus | plaque count | Serotype 4 | 40 µM
Cc1ccc(-n2cc(C(C)(C)O)nn2)cc1C | 2048 µg/mL | inhibition |  |  | Candida parapsilosis | broth dilution | URM 4984 | 0%
Nc1ncnc2c1ncn2[C@@H]1CC[C@@H](O)[C@H]1O |  | EC50 |  | CV-1 | Measles virus | neutral red | TN1994 | 0.1 µg/mL
COc1ccc(OCc2ccccc2C(=O)NC(=S)Nc2cccc(I)c2)cc1 |  | EC50 |  | Human foreskin fibroblasts (HFF) | Toxoplasma gondii |  | RH beta-gal | 132 µM
N#Cc1cc([N+](=O)[O-])ccc1Oc1ccc(Cl)c(Cl)c1 | 0.06 µg/mL | inhibition |  | VERO | Coxsackie virus | plaque count | TYPE B4 | 0%
Nc1ccn(C[C@@H](CO)OCP(=O)(O)O)c(=O)n1 |  | EC50 |  | VERO | Simian varicella-zoster virus | plaque count |  | 11 µM
[Ca+2] | 30 µM | inhibition | 7 d | Human fibroblasts | Pneumocystis carinii |  |  | 31%
CC(C)(O)c1cn(-c2ccc3ccccc3c2)nn1 | 2048 µg/mL | inhibition |  |  | Candida parapsilosis | broth dilution | URM 4804 | 0%
Cc1c(O)c(=O)ccn1C | 72 µM | inhibition | 7 d | Human fibroblasts | Pneumocystis carinii |  |  | 74%
Nc1nc(Cl)nc2c1ncn2[C@@H]1O[C@H](CO)[C@@H](O)[C@H]1O |  | EC50 |  |  | Maedi-visna virus | cytopathic effect |  | 0.15 µM
COc1cc(OC)cc(C(=O)Nc2ccc3nc(NC(C)(C)C(=O)N(C)CCc4ccccn4)oc(=O)c3c2C)c1 |  | EC90 |  | VERO | Herpes simplex virus 1 | plaque count |  | >12.5 µM
CCCCCCCCCCCCCCCCCCOCCCOP1(=O)CO[C@@H](Cn2ccc(N)nc2=O)CO1 |  | EC50 |  | MRC-5 | Guinea pig cytomegalovirus | plaque count |  | 0.001 µM
CN=C(N)c1ccc(N2CCN(c3ccccc3)CC2)cc1 | 10 µg/mL | inhibition |  |  | Pneumocystis carinii |  |  | 56%
COc1ccc(Cc2cn(Cc3ccc(O)cc3)c(/N=C3/NC(=O)NC3=O)n2)cc1 |  | MIC |  |  | Saccharomyces cerevisiae |  | ATCC 18824 | >100 µg/mL
OC[C@H]1O[C@@H](n2cnc3c(NC4CC4)nc(Cl)nc32)C[C@@H]1O |  | EC50 |  |  | Maedi-visna virus | cytopathic effect |  | 0.15 µM
CC(C)N=C(N)c1ccc(N2CCN(c3ccccc3)CC2)cc1 | 10 µg/mL | inhibition |  |  | Pneumocystis carinii |  |  | 90%